## Potato spindle tuber viroid, loop 6: variant abundance in plants

Region: loop 6 of PSTVd (intermediate strain), upper and lower strand joined, each 5' to 3', the first 5 letters being the upper strand, closing pairs included. Wild type: UGACCGCGAG. Varied positions (N): UNNNCGNNNG.

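Three N. benthamiana plants were inoculated with the whole mutant pool. Progeny were sequenced from the inoculated region (day 5), the margin of the inoculated leaf (day 10) and systemic leaves (day 12).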

Values are reads per thousand in the sample; higher means more abundant, 0 means not found. Each site shows the three plants. "Pool" is the share in the plasmid pool used as inoculum, on the same scale. The inoculated region was read from the minus strand, the other sites from the plus strand. Sequences that differ at fixed positions probably stem from PCR or sequencing errors, and defective variants can be carried along by functional ones. With 36,220-57,551 reads a sample, very low values are single reads. For reference, wild type rose from 20.7 per thousand in the pool to 195, 198, 203 (inoculated region), 629, 591, 734 (leaf margin) and 942, 870, 868 (systemic leaves).

| sequence | pool | inoculated region | leaf margin | systemic leaves |
|---|---|---|---|---|
| UAGCCUGGAG | 0.0131 | 0 / 0 / 0 | 0 / 0 / 0 | 0 / 0 / 0 |
| UAGCCUGUUG | 0.0131 | 0 / 0 / 0 | 0 / 0 / 0 | 0 / 0 / 0 |
| UAGGAGUAUG | 0.0131 | 0 / 0 / 0 | 0 / 0 / 0 | 0 / 0 / 0 |
| UAGGCACGGG | 0.0131 | 0 / 0 / 0 | 0 / 0 / 0 | 0 / 0 / 0 |
| UAGGCACUGG | 0.0131 | 0 / 0 / 0 | 0 / 0 / 0 | 0 / 0 / 0 |
| UAGGCGAAAG | 0.235 | 0.191 / 0.0719 / 0.166 | 0 / 0 / 0.0232 | 0 / 0 / 0 |
| UAGGCGAACG | 0.183 | 0.104 / 0.0180 / 0.0738 | 0 / 0 / 0 | 0 / 0 / 0 |
| UAGGCGAAGG | 0.144 | 0.139 / 0.0539 / 0.0922 | 0 / 0 / 0 | 0 / 0 / 0 |
| UAGGCGAAUG | 0.261 | 0.0869 / 0.0898 / 0.111 | 0 / 0 / 0 | 0 / 0 / 0 |
| UAGGCGACAG | 0.144 | 0.209 / 0.0898 / 0.148 | 0 / 0 / 0 | 0 / 0 / 0 |
| UAGGCGACCG | 0.170 | 0.0869 / 0.144 / 0.0369 | 0 / 0 / 0 | 0 / 0 / 0 |
| UAGGCGACGG | 0.183 | 0.104 / 0.0719 / 0.111 | 0.0276 / 0 / 0 | 0 / 0 / 0 |
| UAGGCGACUG | 0.157 | 0.0521 / 0.0719 / 0.0738 | 0 / 0 / 0 | 0 / 0 / 0 |
| UAGGCGAGAG | 0.209 | 0.156 / 0.0719 / 0.129 | 0.0276 / 0 / 0 | 0 / 0 / 0 |
| UAGGCGAGCG | 0.314 | 0.0521 / 0.0539 / 0.0184 | 0 / 0 / 0 | 0 / 0 / 0 |
| UAGGCGAGGG | 0.170 | 0.122 / 0.0898 / 0.0369 | 0 / 0 / 0 | 0 / 0 / 0 |
| UAGGCGAGUG | 0.170 | 0.174 / 0.0898 / 0.0553 | 0.0276 / 0 / 0 | 0 / 0 / 0 |
| UAGGCGAUAG | 0.275 | 0.0869 / 0.180 / 0.0738 | 0.0552 / 0 / 0.255 | 0 / 0 / 0 |
| UAGGCGAUCG | 0.510 | 0.104 / 0.180 / 0.0738 | 0.0276 / 0 / 0 | 0 / 0 / 0 |
| UAGGCGAUGG | 0.431 | 0.139 / 0.0539 / 0.0553 | 0.0276 / 0 / 0.0232 | 0 / 0 / 0.0205 |
| UAGGCGAUUG | 0.379 | 0.191 / 0.0539 / 0.111 | 0 / 0 / 0.0232 | 0 / 0 / 0 |
| UAGGCGCAAG | 0.0784 | 0.0521 / 0.0898 / 0.111 | 0 / 0 / 0.0696 | 0 / 0 / 0 |
| UAGGCGCACG | 0.235 | 0.0695 / 0.108 / 0.0738 | 0 / 0 / 0 | 0 / 0 / 0 |
| UAGGCGCAGG | 0.248 | 0.139 / 0.108 / 0.111 | 0 / 0 / 0 | 0 / 0 / 0 |
| UAGGCGCAUG | 0.340 | 0.174 / 0.0539 / 0.0369 | 0.0552 / 0 / 0.0232 | 0 / 0 / 0 |
| UAGGCGCCAG | 0.275 | 0.139 / 0.162 / 0.129 | 0 / 0 / 0.0232 | 0 / 0 / 0 |
| UAGGCGCCCG | 0.418 | 0.0695 / 0.0359 / 0.0184 | 0 / 0 / 0.0232 | 0 / 0.0202 / 0 |
| UAGGCGCCGG | 0.183 | 0.122 / 0.0539 / 0.0922 | 0 / 0 / 0 | 0 / 0 / 0 |
| UAGGCGCCUG | 0.248 | 0.0869 / 0.0539 / 0.0738 | 0 / 0 / 0 | 0 / 0 / 0 |
| UAGGCGCGAG | 0.353 | 0.261 / 0.0719 / 0.129 | 0.138 / 0 / 0 | 0.0180 / 0 / 0.0615 |
| UAGGCGCGAU | 0.0131 | 0.0174 / 0.0719 / 0.111 | 0.0276 / 0 / 0 | 0 / 0 / 0 |
| UAGGCGCGCG | 0.222 | 0.122 / 0.0898 / 0.129 | 0.0276 / 0 / 0 | 0 / 0 / 0 |
| UAGGCGCGGG | 0.209 | 0.191 / 0.144 / 0.111 | 0.0276 / 0 / 0 | 0 / 0 / 0 |
| UAGGCGCGUG | 0.183 | 0.174 / 0.126 / 0.0738 | 0.0276 / 0 / 0 | 0 / 0 / 0 |
| UAGGCGCUAG | 0.131 | 0.0521 / 0.0359 / 0.0553 | 0 / 0 / 0 | 0 / 0 / 0 |

A selection of 2 entries from above:

UAGCCUGUUG (pool 0.0131) gave inoculated region 0 / 0 / 0; leaf margin 0 / 0 / 0; systemic leaves 0 / 0 / 0.
UAGGAGUAUG (pool 0.0131) gave inoculated region 0 / 0 / 0; leaf margin 0 / 0 / 0; systemic leaves 0 / 0 / 0.

Data from the supplement of Wu et al. 2024, doi:10.1371/journal.ppat.1012142.